Measured values: paper PMC7556816, “Structural and mechanistic analysis of ATPase inhibitors targeting mycobacterial DNA gyrase” (Journal of Antimicrobial Chemotherapy, 2020)

Tested on: M. smegmatis 4x03863 Mutant 2 (GyrB Gly83Ser)

CO[C@@H]1[C@@H](OC(N)=O)[C@@H](O)[C@H](Oc2ccc3c(O)c(NC(=O)c4ccc(O)c(CC=C(C)C)c4)c(=O)oc3c2C)OC1(C)C [novobiocin, reference compound]
increase in resistance of mutant strain: 32 fold
